Pooled drug test results. Numbers come from NIAID ChemDB, via PubChem.

Common to all: whole-cell or culture tests; agent: HIV-1; cell line: H9; read-out: inhibition

Lines come from different laboratories, so protocols vary. Percent inhibition refers to the dose given; in toxicity tests it is the harm to the cells.

{"smiles": "O=P(O)(O)OP(=O)(O)OP(=O)(O)O", "strain": "IIIB", "method": "RT activity", "dose": "100 µg/mL", "result": "3%"}
{"smiles": "C=C1C[C@@H](CO)O[C@H]1n1cc(C)c(=O)[nH]c1=O", "dose": "100 µM", "result": "0%"}
{"smiles": "C[C@H](CCC(=O)O)[C@H]1CC[C@H]2[C@@H]3CC[C@@H]4C[C@H](O)CC[C@]4(C)[C@H]3C[C@H](O)[C@]12C", "strain": "IIIB", "method": "syncytia", "dose": "10 µg/mL", "result": "84.8%"}
{"smiles": "CCN(CC)C(=S)S", "strain": "LAV", "method": "RT activity", "dose": "0.0000075 µg/mL", "result": "30%"}
{"smiles": "Nc1ncnc2c1ncn2C1OC(COP(=O)(O)OC2C(O)C(COP(=O)(O)OC3CC(CO)OC3n3cnc4c(N)ncnc43)OC2n2cnc3c(N)ncnc32)CC1O", "strain": "IIIB", "method": "p24", "dose": "1 µM", "result": "75%"}
{"smiles": "O=C(O)C1=C[C@@H](OC(=O)c2cc(O)c(O)c(O)c2)[C@@H](OC(=O)c2cc(O)c(O)c(O)c2)[C@H](OC(=O)c2cc(O)c(O)c(O)c2)C1", "strain": "IIIB", "method": "p24", "dose": "1 µg/mL", "result": "30%"}
{"smiles": "C[C@H](CCC(=O)NCC(=O)N[C@@H](Cc1cc(I)c(O)cc1I)C(=O)O)[C@H]1CC[C@H]2[C@@H]3[C@H](O)CC4C[C@H](O)CC[C@]4(C)[C@H]3C[C@H](O)[C@]12C", "strain": "IIIB", "method": "syncytia", "dose": "100 µg/mL", "result": "40.9%"}
{"smiles": "CCN(CC)CCCC(C)Nc1ccnc2cc(Cl)ccc12", "method": "p24", "dose": "100 µM", "result": "76.45%"}
{"smiles": "Nc1ccc(S(=O)(=O)O)c2cccc(O)c12", "method": "p24", "dose": "10 µg/mL", "result": "17%"}
{"smiles": "O=C1OCC2OC(O)C(O)C(O)C2OC(=O)c2cc(O)c(O)c(O)c2-c2c(O)c(O)c3oc(=O)c4c(c(O)c(O)c5oc(=O)c2c3c54)-c2c1cc(O)c(O)c2O", "strain": "IIIB", "method": "p24", "dose": "0.2 µg/mL", "result": "10%"}
{"smiles": "Nc1ncnc2c1ncn2C1OC(COP(=O)(O)OC2CC(COP(=O)(O)OC3CC(CO)OC3n3cnc4c(N)ncnc43)OC2n2cnc3c(N)ncnc32)CC1O", "strain": "IIIB", "method": "p24", "dose": "1 µM", "result": "80%"}
{"smiles": "O=C1O[C@@H]2[C@@H](OC(=O)c3cc(O)c(O)c(O)c3-c3c1cc(O)c(O)c3O)[C@@H](O)O[C@@H]1COC(=O)c3cc(O)c(O)c(O)c3-c3c(O)c(O)c4oc(=O)c5c(c(O)c(O)c6oc(=O)c3c4c65)-c3c(cc(O)c(O)c3O)C(=O)O[C@@H]21", "strain": "IIIB", "method": "p24", "dose": "20 µg/mL", "result": "70%"}
{"smiles": "O=C(CCCCCCCCCCC(=O)Nc1cc(S(=O)(=O)O)cc2cc(S(=O)(=O)O)cc(O)c12)Nc1cc(S(=O)(=O)O)cc2cc(S(=O)(=O)O)cc(O)c12", "method": "p24", "dose": "2 µg/mL", "result": "0%"}
{"smiles": "Nc1ncnc2c1ncn2[C@@H]1O[C@H](COP(=O)([O-])O)[C@@H](O)[C@H]1OP(=O)([O-])OC[C@@H]1C[C@@H](OP(=O)([O-])OC[C@@H]2C[C@@H](O)[C@H](n3cnc4c(N)ncnc43)O2)[C@H](n2cnc3c(N)ncnc32)O1", "strain": "IIIB", "method": "p24", "dose": "1 µM", "result": "55%"}
{"smiles": "COc1ccc2[nH]c(C(=O)N3CCN(c4ncccc4NC(C)C)CC3)cc2c1", "strain": "IIIB", "method": "p24", "dose": "0.1 µM", "result": "64%"}
{"smiles": "CCCCCCCCCCCCCC=O", "strain": "IIIB", "method": "RT activity", "dose": "10 µg/mL", "result": "74%"}
{"smiles": "Nc1ncnc2c1ncn2[C@@H]1O[C@H](COP(=O)([O-])O[C@@H]2C[C@@H](COP(=O)([O-])O[C@@H]3C[C@@H](COP(=O)([O-])O)O[C@H]3n3cnc4c(N)ncnc43)O[C@H]2n2cnc3c(N)ncnc32)[C@@H](O)[C@H]1O", "strain": "IIIB", "method": "p24", "dose": "1 µM", "result": "10%"}
{"smiles": "CC(C)Nc1cccnc1N1CCN(C(=O)c2cc3ccccc3[nH]2)CC1", "strain": "IIIB", "method": "p24", "dose": "0.1 µM", "result": "64%"}
{"smiles": "CC(=O)N(O)CCCCCNC(=O)CCC(=O)N(O)CCCCCNC(=O)CCC(=O)N(O)CCCCCN", "strain": "IIIB", "method": "p24", "dose": "10 µM", "result": "74%"}
{"smiles": "O=C(O)C[C@H]1C(=O)O[C@H]2[C@H](OC(=O)c3cc(O)c(O)c(O)c3)[C@@H](OC(=O)c3cc(O)c(O)c4c3[C@H]1[C@H](O)C(=O)O4)[C@H](OC(=O)c1cc(O)c(O)c(O)c1)O[C@@H]2COC(=O)c1cc(O)c(O)c(O)c1", "strain": "IIIB", "method": "p24", "dose": "1 µg/mL", "result": "50%"}
{"smiles": "CC1/C=C/C=C/C=C/C=C/C=C/C=C/C=C/C(OC2OC(C)C(O)C(N)C2O)CC(O)C(C(=O)O)C(O)CC(=O)CC(O)CC(O)CC(O)CC(=O)CCCC(=O)CC(=O)OC1", "strain": "IIIB", "method": "p24 / antigen", "dose": "0.1 µg/mL", "result": "14%"}
{"smiles": "CCCCCCCCCCCCC/C=C/[C@@H](O)[C@H](CO)NC(=O)CCCCCOc1ccc2[nH]c(C(=O)N3CCN(c4ncccc4NC(C)C)CC3)cc2c1", "strain": "IIIB", "method": "p24", "dose": "0.1 µM", "result": "44%"}
{"smiles": "O=C(O)C[C@@H]1C(=O)O[C@H]2[C@@H]3OC(=O)c4cc(O)c(O)c(O)c4-c4c(cc(O)c(O)c4O)C(=O)OC[C@H]2O[C@@H](OC(=O)c2cc(O)c(O)c(O)c2)[C@@H]3OC(=O)c2cc(O)c(O)c3c2[C@H]1[C@H](O)C(=O)O3", "strain": "IIIB", "method": "p24", "dose": "5 µg/mL", "result": "80%"}

For reference, 2 entries again:

O=C(O)C[C@H]1C(=O)O[C@H]2[C@H](OC(=O)c3cc(O)c(O)c(O)c3)[C@@H](OC(=O)c3cc(O)c(O)c4c3[C@H]1[C@H](O)C(=O)O4)[C@H](OC(=O)c1cc(O)c(O)c(O)c1)O[C@@H]2COC(=O)c1cc(O)c(O)c(O)c1 ; strain: IIIB ; method: p24 ; dose: 1 µg/mL ; result: 50%
Nc1ncnc2c1ncn2C1OC(COP(=O)(O)OC2CC(COP(=O)(O)OC3CC(CO)OC3n3cnc4c(N)ncnc43)OC2n2cnc3c(N)ncnc32)CC1O ; strain: IIIB ; method: p24 ; dose: 1 µM ; result: 80%